A mixed list of measured activities; the numbers were collected in NIAID ChemDB.

Common to all: target-level tests

Two numbers with a dash give a range or band.

compound | measure | method | target | agent | strain | result
Cc1[nH]nc2c1C(c1cc(Cl)cc(C#N)c1)(C1CCC1)C(C#N)=C(N)O2 | IC50 | absorbance | Serine hydroxymethyltransferase | Plasmodium falciparum |  | 0.35 µM
COc1cc(NC(C)CCCN)c2nccc(C)c2c1OCCCCCc1cccs1 | IC50 | nucleotide incorporation | Hematin | Plasmodium falciparum |  | 140 µM
Nc1ccc(/C=C/C(=O)NCCCCNc2ccnc3cc(Cl)ccc23)cc1 | IC50 | fluorescence | Falcipain-2 (FP2) | Plasmodium falciparum | Recombinant | >50 µM
C=C1C(=O)O[C@H]2C1CC[C@@]1(C)C=CC(=O)C(=C)[C@H]21 | IC50 | LDH | Lactase dehydrogenase | Plasmodium falciparum | K1 | 3.516–4.674 µM
O=C(/C=C/c1cccc([N+](=O)[O-])c1)NCCCCNc1ccnc2cc(Cl)ccc12 | IC50 | fluorescence | Falcipain-2 (FP2) | Plasmodium falciparum | Recombinant | >50 µM
CO[C@H](C(=O)NO)[C@@H](CC(C)C)C(=O)N[C@H](C(=O)O)c1ccccc1 | IC50 | fluorescence | PfM1AAP | Plasmodium falciparum |  | 0.078 µM
Cc1[nH]nc2c1C(c1cc(Cl)cc(-c3ccc(-c4nn[nH]n4)cc3)c1)(C1CCC1)C(C#N)=C(N)O2 | Ki | absorbance | Serine hydroxymethyltransferase | Plasmodium falciparum |  | 0.145 µM
O=C(c1ccc([N+](=O)[O-])o1)N1CCN(c2nc3c(Cl)cccc3s2)CC1 | IC50 |  | Thioredoxin reductase | Plasmodium vivax |  | 5.2 µM
NC1CCC(NC2=CCC3=NC=C(c4cn[nH]c4)[N+]3=N2)CC1 | IC50 |  | Calcium-dependent protein kinase 1 | Plasmodium falciparum |  | 0.07 µM
O=C(/C=C/c1ccccc1)NCCCCNc1ccnc2cc(Cl)ccc12 | IC50 | fluorescence | Falcipain-2 (FP2) | Plasmodium falciparum | Recombinant | >50 µM
CCCOc1ccc(C2Sc3ccccc3NC3=C2C(=O)c2ccccc23)cc1N(C)C | IC50 | fluorescence | NDH2 | Plasmodium falciparum |  | >20 µM
COc1cc(NC(C)CCCN)c2nccc(C)c2c1OCCCCCc1c(C)cccc1C | IC50 | nucleotide incorporation | Hematin | Plasmodium falciparum |  | 61 µM
N#CC1=C(N)Oc2[nH]ncc2C1(c1cc(Cl)cc(Cl)c1)C1CCC1 | IC50 | absorbance | Serine hydroxymethyltransferase | Plasmodium falciparum |  | 0.35 µM
O=c1[nH]cnc2c1ncn2[C@@H]1CNC[C@H]1OCP(=O)(O)O | Ki | absorbance | Hypoxanthine-guanine-xanthine phosphoribosyltransferase | Plasmodium falciparum |  | 80 µM
CC(C)c1ccc(/C=C/C(=O)NCCCCNc2ccnc3cc(Cl)ccc23)cc1 | IC50 | fluorescence | Falcipain-2 (FP2) | Plasmodium falciparum | Recombinant | >50 µM
Cc1c(-c2ccc(-c3ccc(OC(C)(C)C)cc3)nc2)[nH]c2cc(F)ccc2c1=O | IC50 |  | PfNDH2 | Plasmodium falciparum |  | 0.0047 µM
O=c1c2[nH]cnc2ncn1CCNCCP(=O)(O)O | IC50 | absorbance | Hypoxanthine-guanine-xanthine phosphoribosyltransferase | Plasmodium falciparum |  | >200 µM
COc1ccc(/C=C/C(=O)NCCCCNc2ccnc3cc(Cl)ccc23)cc1 | IC50 | fluorescence | Falcipain-2 (FP2) | Plasmodium falciparum | Recombinant | >50 µM
CC(C)CCn1cc(C2=CN=C3CC=C(NC4CCN(C)CC4)N=[N+]23)cn1 | IC50 |  | Calcium-dependent protein kinase 1 | Plasmodium falciparum |  | 1.5 µM
O=c1[nH]cnc2c1ncn2CCOCCP(=O)(O)O | Ki | absorbance | Hypoxanthine-guanine-xanthine phosphoribosyltransferase | Plasmodium falciparum |  | 0.3 µM
Nc1nc2c(ncn2CCOCCP(=O)(O)O)c(=O)[nH]1 | Ki | absorbance | Hypoxanthine-guanine-xanthine phosphoribosyltransferase | Plasmodium falciparum |  | 0.1 µM
CCCCCn1c(Sc2ccc(C#N)c([N+](=O)[O-])c2)nnc1-c1cccs1 | IC50 |  | Thioredoxin reductase | Plasmodium falciparum |  | 5.2 µM
Cc1[nH]nc2c1C(c1cc(Cl)cc(-c3cccnc3)c1)(C1CCC1)C(C#N)=C(N)O2 | Ki | absorbance | Serine hydroxymethyltransferase | Plasmodium falciparum |  | 0.3 µM
CC(C)n1cc(C2=CN=C3CC=C(NC4CCN(C)CC4)N=[N+]23)cn1 | IC50 |  | Calcium-dependent protein kinase 1 | Plasmodium falciparum |  | 0.546 µM
O=C(/C=C/c1ccc(F)cc1)NCCCCNc1ccnc2cc(Cl)ccc12 | IC50 | fluorescence | Falcipain-2 (FP2) | Plasmodium falciparum | Recombinant | >50 µM
COc1cc(NC(C)CCCN)c2nccc(C)c2c1OCCCCCCCCc1ccccc1 | IC50 | nucleotide incorporation | Hematin | Plasmodium falciparum |  | 98 µM
O=c1[nH]cnc2c1ncn2CCOCCP(=O)(O)O | Ki | absorbance | Hypoxanthine-guanine-xanthine phosphoribosyltransferase | Plasmodium falciparum |  | 0.3 µM

Repeating the first 4 entries:

compound | measure | method | target | agent | strain | result
Cc1[nH]nc2c1C(c1cc(Cl)cc(C#N)c1)(C1CCC1)C(C#N)=C(N)O2 | IC50 | absorbance | Serine hydroxymethyltransferase | Plasmodium falciparum |  | 0.35 µM
COc1cc(NC(C)CCCN)c2nccc(C)c2c1OCCCCCc1cccs1 | IC50 | nucleotide incorporation | Hematin | Plasmodium falciparum |  | 140 µM
Nc1ccc(/C=C/C(=O)NCCCCNc2ccnc3cc(Cl)ccc23)cc1 | IC50 | fluorescence | Falcipain-2 (FP2) | Plasmodium falciparum | Recombinant | >50 µM
C=C1C(=O)O[C@H]2C1CC[C@@]1(C)C=CC(=O)C(=C)[C@H]21 | IC50 | LDH | Lactase dehydrogenase | Plasmodium falciparum | K1 | 3.516–4.674 µM

An empty or dashed field is not shown. Lines come from different laboratories, so protocols vary. ICn: concentration for n% inhibition.